Reference: US20220275059A1 (HARBOUR ANTIBODIES, published 2022)

Molecular target: MERS-S on pseudotyped VSV particles (MERS-S carrying a 16-a.a. cytoplasmic tail truncation) (MERS-CoV, UniProt K9N5Q8 18-1337)
Test: cell-based or functional assay

B1: 1.10f3 (antibody, V domains shown)
VH: QVQLVESGGGVVQPGRSLRLSCKASGFTFRGYGMHWVRQAPGKGLEWVTVIWHDASNKYYVDSVKGRFSISRDNSKNTLYLQMNSLRAEDTAVYYCARDAGLSFDIWGQGTMVTVSS
VL: not shown
50% inh titer, MERS-S VSV ps., column Human IgG MAb: > 20 µg/mL

B2: 3.5g6 (antibody, V domains shown)
VH: QVQLQQSGPGLVKPSQTLSLTCAISGHSVSSNSADWNWIRQSPSRGLEWLGRTYCRSKCYNDYAVSVKSRITINPDTSKNQFSLQLNPVTPEDTAVYYCARSLGSGTYPFDSWGQGTLVTVSS
VL: DIQMTQSPSSLSASVGDRVTITCRASQRISRFLNWYQQTPGKAPKFLIYAASSLQSGVPSRFSGSGSGTDFTLTISSLQPEDFATYYCQQSYSTPLTFGGGTTVEIKR
50% inh titer, MERS-S VSV ps., column Human IgG MAb: > 20 µg/mL
